Reference: article PMC11807745 (The Lancet. Microbe, 2024)

B1: FluA-20 monoclonal antibody (antibody, V domains shown)
VH: QVQLEESGPGLVKPSETLSLTCSVSGVSVTSDIYYWTWIRQPPGKGLEWIGYIFYNGDTNYNPSLKSRVTMSIDTSKNEFSLRLTSVTAADTAVYFCARGTEDLGYCSSGSCPNHWGQGTLVTVSS
VL: DIVMTQSPSSLSASIGDRVTITCRPSQNIRSFLNWFQHKPGKAPKLLIYAASNLQSGVPSRFSGSGSGTEFTLTIRSLQPEDFATYYCQQSYNTPPTFGQGTKVEIK
B2: H2214 monoclonal antibody (antibody, V domains shown)
VH: EVQLLESGGGLVQPGGSLRLSCAASGFTFNHYAMTWVRQAPGKGLEWVASSSGSGRSTYYTDSVKGRFSVSRDNSKNTLYLQMNSLRAEDTAVYYCAKSSNYYGSGSYSPDDYYHMDVWGQGTTVTVSG
VL: EIVMTQSPDTLSVSPGERATLSCRASESISSNLAWYQQKPGQVPRLLIYGASTRATGVPARFTGSGSGTEFTLTISSLQSEDFAVYYCQQYNNRLPYTFGQGTKLEIK

Target: A/California/07/2009 H1 haemagglutinin (influenza A virus A/California/07/2009 …, UniProt C3W5X2)
Assay: BLI
Details: both partners purified

Binder | binding result
B1 | binds
B2 | binds
